These results are taken from patent US20020150975A1 (priority 2000, published 2002).

By UniProt entry, the sequences of proteins in these tests, tags left out. Where a name states a change or a piece, a line headed by the entry shows the natural chain unless it says otherwise.
UniProt Q05941: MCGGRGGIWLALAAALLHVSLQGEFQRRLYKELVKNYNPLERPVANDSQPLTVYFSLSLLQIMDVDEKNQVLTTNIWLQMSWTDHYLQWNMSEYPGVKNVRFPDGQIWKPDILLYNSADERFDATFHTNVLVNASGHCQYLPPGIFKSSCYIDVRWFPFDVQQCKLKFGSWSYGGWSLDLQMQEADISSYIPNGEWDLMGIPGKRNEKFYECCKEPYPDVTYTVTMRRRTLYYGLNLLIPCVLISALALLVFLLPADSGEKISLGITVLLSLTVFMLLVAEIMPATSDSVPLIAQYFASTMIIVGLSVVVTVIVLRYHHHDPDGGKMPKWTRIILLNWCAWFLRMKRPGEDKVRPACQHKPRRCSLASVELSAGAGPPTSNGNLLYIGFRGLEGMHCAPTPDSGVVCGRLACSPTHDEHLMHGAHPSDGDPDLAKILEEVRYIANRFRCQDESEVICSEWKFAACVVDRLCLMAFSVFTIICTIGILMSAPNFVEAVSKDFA

The test has as its target GST-α7-(1-209) fusion protein (Rattus norvegicus, UniProt Q05941). Nature of the test: Displacement of [125I]α-bungarotoxin binding from GST-α7-(1-209) fusion protein. The settings on record: read-out: IC50 of displacement of [125I]α-Bgt; GST-α7-(1-209) 17 μg/ml, pH 8.0, room temperature, 1 h preincubation.

As a reminder, the pIC50 is the IC50 on a negative log10 scale, so that one unit is a factor of ten.

pIC50: −log10 of the molar value.

In the case of alpha-cobratoxin, the pIC50 was 5.04.
